“Also recorded” adds a separate entry of the source.
How the values were obtained:
[1] = Rugulosin analysis of needles by HPLC (toxin in planta); parameters: species or system Picea glauca; settings: field site, both years
Procedure: Rugulosin of purity>95% was used for standards. The presence of rugulosin was then to be determined in a sub-sample of 113 randomly-selected trees of the 330 trees determined to be endophyte positive by antibody. A 100 mg sample of freeze-dried needles was ground to a fine power as describe above and extracted with 10 mL of ice cold petroleum ether by stirring for 45 min under conditions of low light. The flask was kept on ice during the extracting and was covered with aluminium foil to prevent degradation by light. The suspension was filtered by suction and discarded. The needles were returned to the flask and extracted with 10 mL of chloroform for 45 min as above for petroleum ether. The new suspension was then filtered by suction and retained while the needles were discarded. The chloroform extract was washed with 10 mL of 5% NaHCO3 in a separatory funnel. […]
The dried extracts were re-dissolved in 50 μL of acetonitrile, 10 μL was removed and injected into an 1100 series Agilent Technologies HPLC-DAD, using a Synergi Max RP 80A, 250×4.6 column (Phenomonex) and a gradient method adapted from Frisvad (1987). […] Samples were analysed at 389 nm, the maximum UVNIS absorption for rugulosin and peak identity was confirmed by full spectrum data from the diode array detector. The limit of quantification was 150 ng/g freeze dried powdered material; recoveries from spiked needles averaged 75%. […]

[2] = Vermiculin analysis of needles by HPLC (toxin in planta); parameters: species or system Picea glauca

SMILES	rugulosin in cast needles collected in netting around trees [1]	vermiculin in ELISA-negative samples ([2]; three months post inoculation)	ELISA-positive seedlings that contained vermiculin ([2]; three months post inoculation with 5WS11I1)
Cc1cc(O)c2c(c1)C(=O)[C@]13C(=C2O)C(=O)[C@@H]2[C@H](O)[C@H]1[C@@H]1[C@@H](O)[C@H]3C(=O)C3=C(O)c4c(O)cc(C)cc4C(=O)[C@]312 [rugulosin]	no toxin was present; also recorded: No rugulosin was detected	–	–
CC(=O)C[C@@H]1CCC(=O)/C=C/C(=O)O[C@H](CC(C)=O)CCC(=O)/C=C/C(=O)O1 [vermiculin]	–	no vermiculin could be detected	30%
